Results of unrelated studies side by side (data: NIAID ChemDB).

All rows: growth or infection tests; organism: Mycobacterium tuberculosis

MIC50, MIC90 and the like: level of inhibition, or share of isolates inhibited. Rows are shuffled and stem from different studies. Blank or dashed fields: not listed here. Two numbers with a dash give a range or band. ECn: concentration that inhibits the pathogen or its effect by n%. MIC bound: limit read from a one-dose screen. Percent inhibition refers to the dose given; in toxicity tests it is the harm to the cells.

smiles	changes	strain	endpoint	read by	setting	tested at	result
Cc1cc(O)c2c(c1)C(=O)C=CC2=O	-	-	MIC	-	-	-	0.5 µg/mL
CC(=O)Nc1cccc(-c2nnc(C3CCCC(NC(C)=O)C3)nn2)c1	-	H37Rv	inhibition	BACTEC	-	12.5 µg/mL	10%
CCOc1cccc(NC(=O)OCCN2CCCCC2)c1	-	My 331/88	MIC	-	-	-	500 µM
C=CCn1c(SCc2ccc(Cl)cc2Cl)nnc1-c1ccc(N)cc1	-	H37Rv	inhibition	-	-	6.25 µg/mL	<50%
CC(=O)OC1(C#N)CC2OC1C1C2N=NN1C(=O)OC(C)(C)C	-	H37Rv	MIC bound	BACTEC	-	-	>12.5 µg/mL
O=C(NCc1ccccc1)c1cc(Br)cc(Br)c1O	-	H37Rv	MIC	-	14 d	-	32 µM
COc1nc2ccc(Br)cc2cc1[C@@H](c1ccccc1)[C@@](O)(CCN(C)C)c1cccc2ccccc12	-	Erdman	EC50	resazurin	-	-	<0.078 µM
COc1cc2oc3cc(OC)c(OC)c(CC=C(C)C)c3c(=O)c2c(O)c1CC=C(C)C	-	H37Rv	MIC bound	BACTEC	-	-	>12.5 µg/mL
CCCN1CCN(c2cc(=O)c3nc4c(oc3c2)c2c(=O)c3c(O)c(C)c5c(c34)=C(O)[C@@](C)(O/C=C/[C@H](OC)[C@@H](C)[C@@H](OC(C)=O)[C@H](C)[C@H](O)[C@H](C)[C@@H](O)[C@@H](C)/C=C/C=C(/C)C(=O)N2)O5)CC1	-	-	MIC50	-	-	-	0.0125–1.56 µg/mL
O[C@H](c1cc(C(F)(F)F)nc2c(C(F)(F)F)cccc12)[C@@H]1CCCCN1	-	H37Rv	MIC	resazurin	-	-	20 µM
COc1ccc(C(=O)/C(Br)=C/C(=O)O)cc1	-	H37Rv	MIC bound	BACTEC	-	-	>12.5 µg/mL
CC[C@H]1OC(=O)[C@H](C)C(=O)[C@H](C)[C@@H](O[C@@H]2O[C@H](C)C[C@H](N(C)C)[C@H]2O)[C@](C)(OC)C[C@@H](C)C(=O)[C@H](C)[C@@H](O)[C@]1(C)O	-	-	MIC	-	-	-	>128 µM
Cc1ccc(-n2c(SCc3ccc(Cl)cc3Cl)nnc2-c2ccc(N)cc2)cc1	-	H37Rv	inhibition	-	-	6.25 µg/mL	<50%
C=C1C(=O)N[C@@H](C)C(=O)N[C@H](CC(C)C)C(=O)N[C@H](C(=O)O)[C@H](C)C(=O)N[C@H](CCCN=C(N)N)C(=O)N[C@@H](/C=C/C(C)=C/[C@H](C)[C@H](Cc2ccccc2)OC)[C@@H](C)C(=O)N[C@@H](C(=O)O)CCC(=O)N1C	-	H37Rv	MIC	resazurin	-	-	>53 µM
Cc1ccc(-n2c(SCc3ccccc3)nnc2-c2ccc(N=Cc3ccc(O)cc3)cc2)cc1	-	H37Rv	inhibition	-	-	6.25 µg/mL	<50%
CC1(C)CCCC2(C)C(C(=O)O)C3CCC45OC3(CC12)OC(=O)C4C1(C)CCCC(C)(C)C1CC5=O	-	H37Rv	MIC	BACTEC	-	-	≥12.8 µg/mL
CCc1nc(NCCCc2ccccc2)c2cc(C)sc2n1	cydA	Erdman	EC50	resazurin	-	-	0.0062 µM
Cc1ccc(-n2c(SCc3ccccc3)nnc2-c2ccc(N)cc2)cc1	-	H37Rv	inhibition	-	-	6.25 µg/mL	50–59%
CCn1cc(C(=O)O)c(=O)c2cc(F)c(N3CCN(C)CC3)cc21	-	21 strains	MIC90	-	-	-	8 µg/mL
O=[N+]([O-])c1ccc(CSc2nc3ccccc3[nH]2)cc1	-	My 331/88	MIC	-	-	-	62 µM
O=c1c(O)c(-c2ccc(O)cc2)oc2cc(O)cc(O)c12	-	-	inhibition	fluorescence	-	200 µM	68.29%
CCOC(=O)c1cc(C(=O)c2ccc(F)cc2)n2ccc(C(=O)OC(C)C)cc12	XDR-MTB	-	MIC	resazurin	-	-	32 µg/mL
CCCCCCCOc1ccc(NC(=O)OCCN2CCOCC2)cc1	-	My 331/88	MIC	-	-	-	16 µM
NC[C@@H]1O[C@H](O[C@H]2[C@@H](O)[C@H](O[C@@H]3[C@@H](O)[C@H](N)C[C@H](N)[C@H]3O[C@H]3O[C@H](CO)[C@@H](O)[C@H](O)[C@H]3N)O[C@@H]2CO)[C@H](N)[C@@H](O)[C@@H]1O	-	-	MIC	-	-	-	0.09–1.5 µg/mL
Nc1ccc(-c2nnc(SCc3ccc(Cl)cc3Cl)n2-c2ccccc2)cc1	-	H37Rv	EC50	-	-	-	<6.25 µg/mL
CC[C@H]1OC(=O)[C@H](C)C(=O)[C@H](C)[C@@H](O[C@@H]2O[C@H](C)C[C@H](N(C)C)[C@H]2O)[C@](C)(OC)C[C@@H](C)C(=O)[C@H](C)[C@H]2N(NCCCCCCc3ccnc4ccccc34)C(=O)O[C@]12C	-	-	MIC	-	-	-	4 µM
O=C(CCCC(=O)N=Nc1c(Cl)c(O)c2ccccc2c1O)N=Nc1c(Cl)c(O)c2ccccc2c1O	-	H37Rv	MIC bound	BACTEC	-	-	>12.5 µg/mL
Clc1cccc(CSc2nc3ccccc3[nH]2)c1	-	My 331/88	MIC	-	-	-	>125 µM
CCCCN(C)c1nc(CC)nc2sc(C)cc12	-	Erdman	EC50	resazurin	-	-	3.8 µM
NNC(=O)c1nc2ccccc2[nH]1	-	H37Rv	MIC	BACTEC	-	-	≥12.5 µg/mL
CC[C@@H](CO)NCCN[C@@H](CC)CO	-	17 strains	MIC	-	-	-	1.9–7.5 µg/mL
CCCCCCCCCCCCNC(=S)SCCC(=O)O	-	H37Rv	MIC	BACTEC	-	-	32 µg/mL
COc1cccc(C(=O)NCc2cccnc2)c1O	-	H37Rv	MIC	-	14 d	-	250 µM
Fc1ccc(CSc2nc3ccccc3[nH]2)cc1	-	My 331/88	MIC	-	-	-	125 µM
Cc1nc(-c2cccnc2)sc1C(=O)CC(=O)C(=O)Nc1cccc(NC(=O)C(=O)CC(=O)c2sc(-c3cccnc3)nc2C)n1	-	H37Rv	MIC bound	resazurin	-	-	>6.25 µg/mL
C=CC[C@@]1(C)C[C@@H](C)C(=O)[C@H](C)[C@H]2NC(=O)O[C@]2(C)[C@@H](CC)OC(=O)[C@H](C)C(=O)[C@H](C)[C@H]1O[C@@H]1O[C@H](C)C[C@H](N(C)C)[C@H]1O	-	-	MIC	-	-	-	>128 µM
O=C(NCc1ccccc1)c1cc(Cl)cc(Cl)c1O	-	H37Rv	MIC	-	21 d	-	62 µM
Clc1ccc(CSc2nnc(-c3ccc(N=Cc4c(Cl)cccc4Cl)cc3)n2-c2ccccc2)c(Cl)c1	-	H37Rv	EC50	-	-	-	<6.25 µg/mL
CCOc1ccc(NC(=O)OCC[NH+]2CCCC2)cc1	-	My 331/88	MIC	-	-	-	>1000 µM
CC[C@H]1OC(=O)[C@H](C)C(=O)[C@H](C)[C@@H](O[C@@H]2O[C@H](C)C[C@H](N(C)C)[C@H]2O)[C@](C)(OC)C[C@@H](C)C(=O)[C@H](C)[C@H]2N(CCCCn3cnc(-c4cccnc4)c3)C(=O)O[C@]12C	-	-	MIC	-	-	-	128 µM
FC(F)(F)c1cccc(CSc2nc3ccccc3[nH]2)c1	-	My 331/88	MIC	-	-	-	62 µM
O=C(NCc1ccccn1)c1ccc(Cl)cc1O	-	H37Rv	MIC	-	14 d	-	125 µM
CCn1cc(C(=O)O)c(=O)c2cc(F)c(N3CCNC(C)C3)c(F)c21	-	-	MIC	-	-	-	0.5–2 µg/mL
O=[N+]([O-])c1ccc(C=Nc2ccc(-c3nnc(SCc4ccc(Cl)cc4Cl)n3-c3ccccc3)cc2)o1	-	H37Rv	EC50	-	-	-	<6.25 µg/mL
c1ccc(CSc2nc3ccccc3[nH]2)cc1	-	My 331/88	MIC	-	-	-	>250 µM
O=C(NCc1ccccn1)c1cc(F)ccc1O	-	H37Rv	MIC	-	14 d	-	500 µM
CC[C@H]1OC(=O)[C@H](C)C(=O)[C@H](C)[C@@H](O[C@@H]2O[C@H](C)C[C@H](N(C)C)[C@H]2O)[C@](C)(OC)C[C@@H](C)C(=O)[C@H](C)[C@H]2N(CCCCc3ccc(N)cc3)C(=O)O[C@]12C	-	-	MIC	-	-	-	6 µM
CCOC(=O)C1CC(=O)C2/C(=C(\O)c3ccccc3)C=C([N+](=O)[O-])C1C2[N+](=O)[O-]	-	H37Rv	inhibition	resazurin	-	6.25 µg/mL	7%
Cc1ccc(C(=O)NCc2ccccn2)c(O)c1	-	H37Rv	MIC	-	21 d	-	125 µM
O=C1NN2CCCN=C2c2cnccc21	-	H37Rv	MIC	BACTEC	-	-	≥12.5 µg/mL
COc1cc(NC(C)CCCN)c2ncccc2c1	-	H37Ra	MIC	resazurin	-	-	1372 µM
CCCCCCOc1ccccc1NC(=O)OCCN(C)C	-	My 331/88	MIC	-	-	-	32 µM
CCCCNc1nc(CC)nc2sc(C)cc12	-	Erdman	EC50	resazurin	-	-	4.4 µM
COc1ccc(Cc2cnc(N)nc2N)cc1Br	-	Var. hominis	MIC	-	-	-	6 µg/mL
CC(C)=CCC/C(C)=C/COc1ccc(/C=C2\C(=O)N(O)[C@@H](C)C(=O)N2O)cc1	-	H37Rv	MIC	BACTEC	-	-	≥12.5 µg/mL
COc1cccc(C(=O)NCc2ccccn2)c1O	-	H37Rv	MIC	-	14 d	-	250 µM
O=C1CC(/C2=C/CC/C=C(/C3CC(=O)OC3=O)CC/C(C3CC(=O)OC3=O)=C\CC2)C(=O)O1	-	H37Rv	MIC bound	resazurin	-	-	>6.25 µg/mL
CC[C@@H](CO)NCCN[C@@H](CC)CO	-	H37Ra	MIC	resazurin	-	-	8 µM
Cc1ccc(S(=O)(=O)Oc2ccc3oc4c(CO)ccc(NCCN(C)C)c4c(=O)c3c2)cc1	-	KM-R	MIC	-	-	-	12.5 µg/mL
O=C(NCc1ccccn1)c1cc(Cl)ccc1O	-	H37Rv	MIC	-	14 d	-	125 µM
COc1ccc(CCNC2Oc3ccc([N+](=O)[O-])cc3-c3nc(C)c(C#N)cc32)cc1OC	-	H37Rv	MIC bound	BACTEC	-	-	>12.5 µg/mL
NNC(=O)c1ccncc1	-	Isolate HN1993 (katG A110V mutation)	MIC	-	-	-	0.19 µg/mL
CC(C)=CCCC(C)(OC1OC(CO)C(O)C(O)C1O)C1CCC2(C)C1C(O)CC1C3(C)CCC(O)C(C)(C)C3C(OC3OC(CO)C(O)C(O)C3O)CC12C	-	-	inhibition	fluorescence	-	200 µM	2.62%
CC[C@H]1OC(=O)[C@H](C)[C@@H](O[C@H]2C[C@@](C)(OC)[C@@H](OC(C)=O)[C@H](C)O2)[C@H](C)[C@@H](O[C@@H]2O[C@H](C)C[C@H](N(C)C)[C@H]2O)C(C)(O)C[C@@H](C)/C(=N\OCCCC2CCCCC2)[C@H](C)[C@@H](O)[C@]1(C)O	-	7	MIC	-	-	-	3.13 µg/mL
COC1OC(COC(=O)c2ccccc2)C(OC(=O)c2ccccc2)C1NC(C)=O	-	H37Rv	MIC bound	BACTEC	-	-	>12.5 µg/mL
Cc1cccc(C(=O)NCc2ccccn2)c1O	-	H37Rv	MIC	-	14 d	-	62.5 µM
COc1cc(C2Oc3cc(C4Oc5cc(O)cc(O)c5C(=O)C4O)ccc3OC2CO)ccc1O	-	-	inhibition	fluorescence	-	200 µM	0%
COc1ccc(NC(=O)OCCN2CCOCC2)cc1	-	My 331/88	MIC	-	-	-	1000 µM
COc1cc(Cc2cnc(N)nc2N)cc(Br)c1OC	-	Var. hominis	MIC	-	-	-	>1000 µg/mL
CO[C@H]1/C=C/O[C@@]2(C)Oc3c(C)c(O)c4c(O)c(c5c(c4c3C2=O)NC2(CCN(CC(C)C)CC2)N=5)=NC(=O)/C(C)=C\C=C\[C@H](C)[C@H](O)[C@@H](C)[C@@H](O)[C@@H](C)[C@H](OC(C)=O)[C@@H]1C	-	2237 (rifampicin-susceptible)	MBC	-	-	-	0.125 µg/mL
COc1ccc(CC(N=Cc2ccc3c(c2)OCO3)C(=O)NC2C(CO)OC(n3cnc4c(N(C)C)ncnc43)C2O)cc1	-	H37Rv	MIC bound	BACTEC	-	-	≤12.5 µg/mL
CCCCCCCCOc1ccccc1NC(=O)OCCN1CCOCC1	-	My 331/88	MIC	-	-	-	32 µM
Cn1c([N+](=O)[O-])cnc1COC(=O)Nc1ccc(N(CCCl)CCCl)cc1	-	H37Rv	inhibition	resazurin	-	6.25 µg/mL	12%
CC1=C(O)C(=O)C=C2C1=CC=C1C2(C)CCC2(C)C3CC(C)(C(=O)O)CCC3(C)CCC12C	-	-	inhibition	fluorescence	-	200 µM	69.56%
COC(=O)C1=COC(C)C2Cn3ccc4c5ccccc5nc-4c3CC12	-	H37Rv	inhibition	BACTEC	-	12.5 µg/mL	6%
NC(=O)c1cnccn1	-	CA516 niacin-negative	MIC	-	-	-	512 µg/mL
COc1cccc2c1C(=O)c1c(O)c3c(c(O)c1C2=O)C[C@@](O)(/C(C)=N/NC(=O)c1ccc(Cl)cc1)C[C@H]3O[C@H]1C[C@H](N)[C@H](O)[C@H](C)O1	-	H37Rv	MIC	-	-	-	>12.5 µg/mL
CCCCCCCCOc1cccc(NC(=O)OCC[NH+]2CCCC2)c1	-	My 331/88	MIC	-	-	-	16 µM

Repeating the first 4 entries:

smiles	changes	strain	endpoint	read by	setting	tested at	result
Cc1cc(O)c2c(c1)C(=O)C=CC2=O	-	-	MIC	-	-	-	0.5 µg/mL
CC(=O)Nc1cccc(-c2nnc(C3CCCC(NC(C)=O)C3)nn2)c1	-	H37Rv	inhibition	BACTEC	-	12.5 µg/mL	10%
CCOc1cccc(NC(=O)OCCN2CCCCC2)c1	-	My 331/88	MIC	-	-	-	500 µM
C=CCn1c(SCc2ccc(Cl)cc2Cl)nnc1-c1ccc(N)cc1	-	H37Rv	inhibition	-	-	6.25 µg/mL	<50%